A mixed list of measured activities; the numbers were collected in NIAID ChemDB.

Shared fields: whole-cell or culture tests

Blank or dashed fields: not listed here. Lines come from different laboratories, so protocols vary. ECn: concentration that inhibits the pathogen or its effect by n%. Percent inhibition refers to the dose given; in toxicity tests it is the harm to the cells. Fold resistance: result on the changed form divided by that on wild type.

smiles,species,conditions,measure,cells,tested at,method,changes,strain or isolate,result
Cc1cn([C@H]2C[C@H](N=[N+]=[N-])[C@@H](CO)O2)c(=O)[nH]c1=O,HIV-2,,inhibition,CEM,1 µM,virus yield,,LAV-2,90%
c1cc(CN2CCCNCCNCCCNCC2)ccc1CN1CCCNCCNCCCNCC1,HIV-1,,inhibition,PBMC,0.5 µM,p24,,PCP1 CLADE C R5 CXCR6,34%
CO[C@H]1[C@@H](O)[C@H](n2cnc3c(N)ncnc32)[C@@H](O)[C@H](O)[C@@H]1O.O=C(O)/C=C/C(=O)O,HIV-2,,inhibition,MT-4,10 µg/mL,cytopathic effect / MTT,,,35.7%
O=S(=O)(c1ccccc1)c1ccccc1,HIV-1,,fold resistance,CEM + CEM-SS,,XTT,RT-L100I T139I,Costatolide-resistant (RT L100I T139I),23
C1CNCCNCCCN[C@H]([C@@H]2CNCCCNCCNCCCN2)CNC1,HIV-2,,EC90,MT-4,,cytopathic effect / MTT,,ROD,0.87 µM
CC(C)(C)NC(=O)[C@@H]1C[C@@H]2CCCC[C@@H]2CN1C[C@@H](O)[C@H](Cc1ccccc1)NC(=O)[C@H](CC(N)=O)NC(=O)c1ccc2ccccc2n1,HIV-2,,EC90,PBMC,,RT activity,,ROD,0.019 µM
CCCc1cc(=O)oc2c3c(c4c(c12)OC(C)(C)C=C4)O[C@@H](C)[C@H](C)[C@@H]3O,HIV-1,,EC50,CEM + CEM-SS,,XTT,RT-D67N K70R T215Y K219Q,NL4-3(RT-4XAZT),0.2 µM
O=C1N(Cc2ccc(CO)cc2)[C@H](Cc2ccccc2)[C@H](O)[C@@H](O)[C@@H](Cc2ccccc2)N1Cc1ccc(CO)cc1,HIV-1,,inhibition,PBMC,0.24 µM,p24,,A018A,90%
Cc1ccnc2c1NC(=O)c1cccnc1N2C1CC1,HIV-1,,fold resistance,CEM + CEM-SS,,XTT,RT-L100I T139I,Costatolide-resistant (RT L100I T139I),20
C#C[C@]1(CO)O[C@@H](n2cnc3c(N)nc(F)nc32)CC1O,HIV-2,,fold resistance,MAGIC-5A,,β-galactosidase / absorbance,K65R Q151M,ROD9,0.5
C1CNCCNCCCN(CCCN2CCCNCCNCCCNCC2)CCNC1,HIV-2,,EC90,MT-4,,cytopathic effect / MTT,,EHO,3.6 µM
Cc1cn([C@H]2C[C@H](N=[N+]=[N-])[C@@H](CO)O2)c(=O)[nH]c1=O,HIV-1,,EC50,CEM + CEM-SS,,XTT,RT-Y188C,NL4-3,0.006 µM
Cc1ccnc2c1NC(=O)c1cccnc1N2C1CC1,HIV-1,,EC95,MT-4,,,RT-D67N K70R T215Y K219Q A98G,,0.4 µM
CCc1c(C(=O)c2cc(C)cc(C)c2)n(CC2CC=CC2)c(=O)[nH]c1=O,HIV-2,clinical isolate,EC50,PBMC,,cytopathic effect / XTT,,CDC310342,0.003 µM
Cc1ccnc2c1NC(=O)c1cccnc1N2C1CC1,HIV-2,,EC90,PBMC,,RT activity,,ROD,>20 µM
CO[C@@H]1[C@@H](O)[C@@H](O)[C@H](O)[C@H](O)[C@H]1n1ccc(N)nc1=O.O=C(O)/C=C/C(=O)O,HIV-2,,inhibition,MT-4,10 µg/mL,cytopathic effect / MTT,,,32.6%
Cc1cn([C@H]2C[C@H](F)[C@@H](CO)O2)c(=O)[nH]c1=O,HIV-2,,EC50,PBMC,,ELISA,,2298,0.006 µM
CO[C@H]1[C@@H](O)[C@H](n2ccc(N)nc2=O)[C@@H](O)[C@H](O)[C@@H]1O,HIV-2,,inhibition,MT-4,10 µg/mL,cytopathic effect / MTT,,,22.6%
CC(C)(C)NC(=O)[C@@H]1C[C@@H]2CCCC[C@@H]2CN1C[C@@H](O)[C@H](Cc1ccccc1)NC(=O)[C@H](CC(N)=O)NC(=O)c1ccc2ccccc2n1,HIV-1,,EC95,MT-4,,p24,PR-L10R M46I L63P V82T,NL4-3,0.025 µM
CO[C@@H]1[C@@H](O)[C@@H](O)[C@H](O)[C@H](O)[C@H]1n1cnc2c(N)ncnc21,HIV-2,,inhibition,MT-4,10 µg/mL,cytopathic effect / MTT,,,44.5%
CC(C)CN(C[C@@H](O)[C@H](Cc1ccccc1)NC(=O)[C@H](CC(N)=O)NC(=O)c1ccc2ccccc2n1)C(=O)NC(C)(C)C,HIV-1,,EC95,MT-4,,p24,PR-L10R M46I,NL4-3,0.2 µM

The last 3 rows once more:

smiles	species	conditions	measure	cells	tested at	method	changes	strain or isolate	result
CC(C)(C)NC(=O)[C@@H]1C[C@@H]2CCCC[C@@H]2CN1C[C@@H](O)[C@H](Cc1ccccc1)NC(=O)[C@H](CC(N)=O)NC(=O)c1ccc2ccccc2n1	HIV-1		EC95	MT-4		p24	PR-L10R M46I L63P V82T	NL4-3	0.025 µM
CO[C@@H]1[C@@H](O)[C@@H](O)[C@H](O)[C@H](O)[C@H]1n1cnc2c(N)ncnc21	HIV-2		inhibition	MT-4	10 µg/mL	cytopathic effect / MTT			44.5%
CC(C)CN(C[C@@H](O)[C@H](Cc1ccccc1)NC(=O)[C@H](CC(N)=O)NC(=O)c1ccc2ccccc2n1)C(=O)NC(C)(C)C	HIV-1		EC95	MT-4		p24	PR-L10R M46I	NL4-3	0.2 µM